Anti-infective test results gathered from many reports (values: NIAID ChemDB through PubChem).

Common to all: growth or infection tests; species: HIV-1; read-out: EC95

ECn is the concentration giving n% inhibition of infection, replication or growth. An empty or dashed field is not shown. Lines come from different laboratories, so protocols vary.

SMILES	setting	strain or isolate	cells	method	mutations	value
CN1CCOCC1c1nc(C(=O)NCc2ccc(F)c(Cl)c2)c(O)c(=O)n1C	10% FBS	IIIB	MT-4	p24 / ELISA	-	<0.008 µM
CCCc1nnc(C[C@H](C[C@H](O)CN2CCN(C(C)(C)c3ncc(-c4cncc(OC)c4)o3)C[C@H]2C(=O)NCC(F)(F)F)C(=O)N[C@H]2c3ccccc3OC[C@H]2O)o1	-	Q-60 Clinical isolate	MT-4	p24	PR-L10I N37S R41K M46I I54V I62V L63P A71V V77I V82A L90M I93L	0.5 µM
CCc1cc(NCc2nc3c(Cl)ccc(Cl)c3o2)c(=O)[nH]c1C	-	IIIB	MT-4	-	-	0.05 µM
Cc1cc(C)c(-n2nnnc2SCC(=O)Nc2cc(F)ccc2F)c(C)c1	-	-	MT-4	p24	-	<10 µM
CN1CCS(=O)(=O)CC1c1nc(C(=O)NCc2ccc(F)cc2)c(O)c(=O)n1C	10% FBS	IIIB	MT-4	p24 / ELISA	-	>1 µM
O=C(O)[C@@H](C1CCCCC1)N1C[C@H](CN2CCC(CCCc3ccccc3)CC2)[C@@H](c2ccccc2)C1	-	BaL	PBMC	-	-	0.077 µM
CCc1cc(NCc2nc3c(C)ccc(C)c3o2)c(=O)[nH]c1C	-	IIIB	H9	p24	-	0.15 µM
CN1CCS(=O)CC1c1nc(C(=O)NCc2ccc(F)cc2)c(O)c(=O)n1C	10% FBS	IIIB	MT-4	p24 / ELISA	-	>1 µM
O=C(N[C@H]1c2ccccc2OC[C@H]1O)[C@H](Cc1nnco1)C[C@H](O)CN1CCN(Cc2ccc(-c3ccc(Cl)cc3)o2)C[C@H]1C(=O)NCC(F)(F)F	-	K-60 Clinical isolate	MT-4	p24	PR-L10I M46I I54V Q58E L63P I64V V77I V82F I84V L90M I93L	0.063 µM
C[C@H]1C[C@@H](c2nc(C(=O)NCc3ccc(F)cc3)c(O)c(=O)n2C)N(C)C1	50% human serum	IIIB	MT-4	p24 / ELISA	-	>1 µM
CC(Sc1nnnn1-c1cccc2ccccc12)C(=O)Nc1ccccc1[N+](=O)[O-]	-	-	MT-4	p24	-	<10 µM
O=C(O)[C@@H](C1CCCCC1)N1C[C@H](CN2CCC(O)(CCCc3ccccc3)CC2)[C@@H](c2ccccc2)C1	-	BaL	PBMC	-	-	0.187 µM
CC(C)(C)NC(=O)[C@@H]1CN(C(C)(C)c2cc3cnccc3o2)CCN1C[C@@H](O)C[C@@H](Cc1ccccc1)C(=O)N[C@H]1c2ccccc2C[C@H]1O	-	V-18C(PR-L10I M36I S37D M46I R57K LK63P A71V G73S I84V L90M I93L)	-	-	PR-L10I M36I S37D M46I R57K LK63P A71V G73S I84V L90M I93L	>1 µM
CN(C)S(=O)(=O)N(C)C1CCn2c1nc(C(=O)NCc1ccc(F)cc1)c(O)c2=O	50% human serum	IIIB	MT-4	p24 / ELISA	-	>1 µM
CCc1cc(NCc2nc3c(Cl)ccc(Cl)c3o2)c(=O)[nH]c1C	-	IIIB	MT-4	p24 / ELISA	-	0.05 µM
O=C(N[C@H]1c2ccccc2OC[C@H]1O)[C@H](Cc1nnc(-c2ccccc2)o1)C[C@H](O)CN1CCN(Cc2ccc(-c3ccc(Cl)cc3)o2)C[C@H]1C(=O)NCC(F)(F)F	-	V-18 Clinical isolate	MT-4	p24	PR-L10I M36I N37D M46I R57K L63P A71V G73S I84V L90M I93L	0.25 µM
Cc1c(O)cccc1C(=O)N[C@@H](CSc1ccccc1)[C@H](O)CN1C[C@H]2CCCC[C@H]2C[C@H]1C(=O)NC(C)(C)CO	-	RF	CEM + CEM-SS	cytopathic effect / MTT	-	0.1541 µM
CC(C)(C)NC(=O)[C@@H]1CN(C(C)(C)c2cc3cnccc3o2)CCN1C[C@@H](O)C[C@@H](Cc1ccccc1)C(=O)N[C@H]1c2ccccc2OC[C@H]1O	-	NL4-3	MT-4	-	-	0.008 µM
O=C(CSc1nnnn1-c1cccc2ccccc12)Nc1ccc(Cl)cc1[N+](=O)[O-]	-	-	MT-4	p24	-	<10 µM
CN(C[C@@H](CCN1CCC2(CC1)CS(=O)(=O)c1ccccc12)c1cccc(Cl)c1)S(=O)(=O)c1ccccc1	-	M-tropic YU-2	PBMC	p24 / antigen	-	8 µM
CC(=O)c1cc(NCc2nc3c(Cl)ccc(Cl)c3o2)c(=O)[nH]c1C	-	IIIB	MT-4	p24 / ELISA	-	0.1 µM
CN(C[C@@H](CCN1CCC2(CC1)CS(=O)c1ccccc12)c1cccc(Cl)c1)S(=O)(=O)c1ccccc1	-	M-tropic YU-2	PBMC	p24 / antigen	-	1.5 µM
O=C(CSc1nnnn1-c1cccc(Cl)c1)Nc1ccccc1Cl	-	-	MT-4	p24	-	<10 µM
CCc1cc(NCc2nc3c(Cl)ccc(Cl)c3o2)c(=O)[nH]c1C	-	IIIB	PBL	p24	-	0.05 µM
Cc1cc(SC2=C(O)CC(CCc3ccc(O)cc3)(c3ccccc3)OC2=O)c(C(C)(C)C)cc1CO	-	-	CEM	cytopathic effect / XTT	-	20 µM
Cc1nnc(C[C@H](C[C@H](O)CN2CCN(Cc3ccc(-c4ccc(Cl)cc4)o3)C[C@H]2C(=O)NCC(F)(F)F)C(=O)N[C@H]2c3ccccc3OC[C@H]2O)o1	-	NL4-3 WT	MT-4	p24	-	0.063 µM
Cc1cc(C)c(-n2nnnc2SCC(=O)Nc2ccc(F)cc2Br)c(C)c1	-	-	MT-4	p24	-	<10 µM
Cc1c(O)cccc1C(=O)N[C@@H](CSc1ccccc1)[C@H](O)CN1C[C@H]2CCCC[C@H]2C[C@H]1C(=O)NC(C)(C)CO	-	RF	CEM + CEM-SS	cytopathic effect / MTT	-	0.1541 µM
Cc1ccccc1NC(=O)CSc1nnnn1-c1cccc2ccccc12	-	-	MT-4	p24	-	<10 µM
CC(C)(C)NC(=O)[C@@H]1C[C@@H]2CCCC[C@@H]2CN1C[C@@H](O)[C@H](Cc1ccccc1)NC(=O)[C@H](CC(N)=O)NC(=O)c1ccc2ccccc2n1	-	NL4-3	MT-4	p24	PR-M46I V82T I84V	0.05 µM
CN(C)C(=O)C(=O)N(C)C1CCn2c1nc(C(=O)NCc1ccc(F)cc1)c(O)c2=O	50% human serum	IIIB	MT-4	p24 / ELISA	-	>1 µM
CNC(=O)c1[nH]c2ccc(Cl)cc2c1Sc1ccccc1	-	IIIB	MT-4	p24 / ELISA	-	0.2 µM
C[C@@H]1C[C@@H](c2nc(C(=O)NCc3ccc(F)cc3)c(O)c(=O)n2C)N(C)C1	10% FBS	IIIB	MT-4	p24 / ELISA	-	>1 µM
CC(C)(c1ncc(-c2ccc(F)cc2)o1)N1CCN(C[C@@H](O)C[C@@H](Cc2nnc(-c3ccccc3)o2)C(=O)N[C@H]2c3ccccc3OC[C@H]2O)[C@H](C(=O)NCC(F)(F)F)C1	-	V-18 Clinical isolate	MT-4	p24	PR-L10I M36I N37D M46I R57K L63P A71V G73S I84V L90M I93L	0.063 µM
CC(C)CN(C[C@@H](O)[C@H](Cc1ccccc1)NC(=O)[C@H](CC(N)=O)NC(=O)c1ccc2ccccc2n1)C(=O)NC(C)(C)C	-	NL4-3	MT-4	p24	PR-L63P	0.2 µM
Cc1cc(C)c(-n2nnnc2SCC(=O)Nc2ccccc2OC(F)F)c(C)c1	-	-	MT-4	p24	-	<10 µM
NC(=O)c1[nH]c2ccc(Cl)cc2c1S(=O)c1ccccc1	-	IIIB	MT-4	p24 / ELISA	-	0.2 µM
CC(=O)c1cccc(-n2nnnc2SCC(=O)Nc2ccccc2Cl)c1	-	-	MT-4	p24	-	<10 µM
COC(=O)c1[nH]c2ccc(Cl)cc2c1Sc1ccccc1	-	IIIB	MT-4	p24 / ELISA	-	1.5 µM
CC(C)=CCN1Cc2cccc3[nH]c(=S)n(c23)C[C@@H]1C	-	IIIB	MT-4	-	-	0.2 µM
CN(C)C(=O)c1[nH]c2ccccc2c1Sc1ccccc1	-	IIIB	MT-4	p24 / ELISA	-	>3 µM
Cc1cn([C@H]2C[C@H](N=[N+]=[N-])[C@@H](CO)O2)c(=O)[nH]c1=O	-	IIIB	H9	p24 / ELISA	-	20 µM
Cc1ccnc2c1NC(=O)c1cccnc1N2C1CC1	-	-	MT-4	-	RT-D67N K70R T215Y K219Q L100I	0.4 µM
CN(CC(CCN1CCC2(CC1)CS(=O)c1ccccc12)c1ccccc1)S(=O)(=O)c1ccccc1	-	M-tropic YU-2	PBMC	p24 / antigen	-	0.8 µM
Cn1c(C2COCCN2C(=O)OC(C)(C)C)nc(C(=O)NCc2ccc(F)cc2)c(O)c1=O	10% FBS	IIIB	MT-4	p24 / ELISA	-	>1 µM

For reference, 5 entries again:

Cc1cc(C)c(-n2nnnc2SCC(=O)Nc2ccccc2OC(F)F)c(C)c1 ; cells: MT-4 ; method: p24 ; value: <10 µM
CN(C)C(=O)C(=O)N(C)C1CCn2c1nc(C(=O)NCc1ccc(F)cc1)c(O)c2=O ; setting: 50% human serum ; strain or isolate: IIIB ; cells: MT-4 ; method: p24 / ELISA ; value: >1 µM
O=C(CSc1nnnn1-c1cccc(Cl)c1)Nc1ccccc1Cl ; cells: MT-4 ; method: p24 ; value: <10 µM
Cc1cc(C)c(-n2nnnc2SCC(=O)Nc2cc(F)ccc2F)c(C)c1 ; cells: MT-4 ; method: p24 ; value: <10 µM
CN1CCS(=O)CC1c1nc(C(=O)NCc2ccc(F)cc2)c(O)c(=O)n1C ; setting: 10% FBS ; strain or isolate: IIIB ; cells: MT-4 ; method: p24 / ELISA ; value: >1 µM